The values below come from PubChem BioAssay AID485275 (NMMLSC, 2010).

The structures appear in SMILES notation. This is a selection; strong and weak results do not stand in their true shares. Calls of active or inactive are those of the source.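 Rule for the calls: active = plate passing quality check with inhibition over a set limit, or well fluorescence over plate mean plus 4 SD; inactive = the rest.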

The nature of this experiment: inhibitors of Candida efflux pumps in yeast, primary screen, S. cerevisiae, Nile Red, multiplex (AID 485275).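 Note: Nile Red retained in pooled yeast measured as flow cytometry median fluorescence; 0% = buffer negative control and 100% = Enniatin B positive control; higher means more Nile Red kept so more efflux inhibition.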 The settings on record: S. cerevisiae Candida pump triplex, at 10 µM, stronger effect = higher value.
As for `CN(CCCl)Cc1cc(Cl)c(NC2=NCCN2)c(Cl)c1`, the inhibition was inactive: 0.1%. For `CCOP(=O)(Nc1ccc(C)cn1)OCC`, the inhibition is inactive: 0.23%. Next, `O=P1(Nc2ccccn2)COc2ccccc2OC1`: inactive: 0.2%; `CCC1=CC2Cc3nc4ccc(Cl)cc4c(N)c3C(C1)C2` (stereo not given): inactive: 0%. Next, `CCOP(=O)(NC(=NC(C)c1ccccc1)NC(C)c1ccccc1)OCC` (stereo not given): inactive: 0.59%. As to `Clc1n[nH]nc1-c1nn[nH][15n]1`, the inhibition was inactive: 0.05%. With `CC(C)(C)C(=O)NC(Sc1ncccn1)C(Cl)(Cl)Cl` (stereo not given), the inhibition is inactive: -0.03%. As to `COc1ccccc1CNC(=O)COC(=O)C(O)(c1ccccc1)c1ccccc1`, the inhibition is inactive: -0.1%. In the case of `O=[As](O)(c1ccccc1Br)c1ccccc1Br`, the inhibition is inactive: 0.6%. As to `CC1(CBr)Cn2c(nc3ccccc3c2=O)S1` (stereo not given), the inhibition is inactive: 0.12%.

As to `CC(C)/C=N\N=C(\N)N[N+](=O)[O-]`, the inhibition is inactive: -0.09%.

For the compound `CN(C(=O)Cc1ccc(Cl)c(Cl)c1)[C@@H]1CCCC[C@H]1N1CCCC1`, the inhibition is inactive: 0.04%.

For `Cc1nn(-c2ccccc2)c2c1P(=O)(N1CCOCC1)N(C)C(c1ccccc1)=N2` (stereo not given), the inhibition was inactive: 0.07%.

For the compound `CC1CCC(C(C)C)C(OP(=O)(Nc2ccccn2)c2ccccc2)C1` (stereo not given), the inhibition was inactive: 0.02%. Then `Cc1ccc(C(=O)OC2CN3CCC2CC3)cc1` (stereo not given), with inactive: 0.32%; and `O=C(/C=C/c1ccccc1)OC1CN2CCC1CC2` (stereo not given), with inactive: -0.17%. As to `CN(C)C1(CNC(=O)c2ccc(S(C)(=O)=O)cc2)CCCCC1`, the inhibition was inactive: 0.04%. For `O=P1(Nc2ncccn2)COc2ccccc2OC1`, the inhibition is inactive: 0.18%.

For the compound `O=P1(Nc2ccc(Br)cn2)COc2ccccc2OC1`, the inhibition was inactive: -0.11%. Take `NS(=O)(=O)c1cccc(NC(=O)COC(=O)C(O)(c2ccccc2)c2ccccc2)c1`: the inhibition is inactive: 0.07%. `O=[As](O)(c1cccs1)c1cccs1`: the inhibition is inactive: 0.33%. Then `Cc1ccc(OCC(=O)OC2CN3CCC2CC3)cc1` (stereo not given), with inactive: 0.03%; and `Nc1cccc([As](=O)(O)c2ccccc2)c1`, with inactive: 0.12%. Next, `CS(=O)(=O)c1cc([N+](=O)[O-])c2no[n+]([O-])c2c1`: inactive: 0.2%. For the compound `CCOP1(=S)c2c(C)nn(CCC#N)c2N=C(c2ccccc2F)N1C` (stereo not given), the inhibition was inactive: -0.04%. Next, `O=P(Nc1nccs1)(c1ccccc1)c1nc2ccccc2s1` (stereo not given): active: 0.4%; `O=P(Nc1nccs1)(Oc1ccccc1)Oc1ccccc1`: inactive: -0.07%. As for `Nc1ccccc1[As](=O)(O)c1ccccc1`, the inhibition is inactive: 0.18%.

In the case of `O=C(O)COc1ccc([As](=O)(O)O)cc1[N+](=O)[O-]`, the inhibition is inactive: 0.4%. As for `NC(=O)Nc1ccc([As](=O)(O)O)cc1`, the inhibition is inactive: -0.25%. Next, `CN(C)C(=O)c1cc([N+](=O)[O-])cc2c1-c1c(cc([N+](=O)[O-])cc1[N+](=O)[O-])C2=O`: inactive: -0.01%; `O=[N+]([O-])c1ccc2c(c1)nnn2O`: inactive: -0.1%; `CN(C(=O)Cc1ccc(Cl)c(Cl)c1)[C@H]1CC[C@@]2(CCCO2)C[C@@H]1N1CCCC1`: inactive: 0.16%. Then `N#CCCN(C(=O)COC(=O)C(O)(c1ccccc1)c1ccccc1)c1ccc(F)cc1`, with inactive: 0.02%. Next, `CN(C(=O)Cc1ccccc1)[C@@H]1CC[C@]2(CCCO2)C[C@H]1N1CCCC1`: inactive: 0.19%; `CCOP1(=S)c2c(C)nn(CCC#N)c2N=C(c2ccc(F)cc2)N1C` (stereo not given): inactive: -0.05%; `COc1cc(C(=O)NCC2(N3CCOCC3)CCCCC2)cc(Cl)c1OC(C)C`: inactive: 0.08%. Turning to `O=[As](O)(O)c1cccnc1`, the inhibition is inactive: -0.13%. Next, `CS(=O)(=O)c1ccc(Cl)c(NC(=O)COC(=O)C(O)(c2ccccc2)c2ccccc2)c1`: inactive: -0.11%; `O=C(OC1CN2CCC1CC2)c1ccc(Cl)cc1` (stereo not given): inactive: -0.16%; `O=[As](O)(c1cccc(O)c1)c1cccc(O)c1`: inactive: -0.13%. Turning to `Cc1cccc(OCC(=O)OC2CN3CCC2CC3)c1` (stereo not given), the inhibition is inactive: -0.23%.

For the compound `CCCOP(=S)(Nc1nc(N)cc(=O)[nH]1)OCCC`, the inhibition was inactive: 0%. Next, `Nc1cccc2c([As](=O)(O)O)cccc12`: inactive: 0.12%.

In the case of `Cc1ccc(NCCc2c([N+](=O)[O-])cc([N+](=O)[O-])cc2[N+](=O)[O-])cc1`, the inhibition was inactive: 0.08%. Then `COc1cc(C2NCCC3(OCCO3)C2(C)C)cc(OC)c1OC` (stereo not given), with inactive: -0.13%; and `CCOP(=O)(Nc1cccc2ccccc12)OCC`, with inactive: 0.3%. Turning to `O=C(OC1CN2CCC1CC2)C12CC3CC(CC(C3)C1)C2` (stereo not given), the inhibition was inactive: -0.1%.

For `Cc1cc(=O)[nH]c(N[N+](=O)[O-])n1`, the inhibition was inactive: 0.06%.

Take `Cc1c2c(nc3ccccc13)SC(C(Cl)Cl)C2` (stereo not given): the inhibition was inactive: -0.04%. Next, `COc1ccc2nc(NP(=O)(c3ccccc3)c3ccccc3)sc2c1`: inactive: 0.01%.

As for `COc1cc(I)ccc1[As](=O)(O)O`, the inhibition was inactive: -0.08%. Then `COc1ccc(N/C(=N/P(=O)(N2CCOCC2)N2CCOCC2)N2CCOCC2)cc1`, with inactive: -0.07%; and `O=[As](O)(c1ccc(O)cc1)c1ccccc1O`, with inactive: -0.01%; and `C[As](=O)(O)c1cccc(C(=O)O)c1`, with inactive: -0.09%. Then `COc1cc(C(=O)NCC2(N3CCOCC3)CCCCC2)ccc1OCC(C)C`, with inactive: 0.28%. Then `Cc1ccc2nc3c(c(C)c2c1)CC(C(Cl)Cl)S3` (stereo not given), with inactive: 0.2%; and `Cc1ccc(OP(=O)(Nc2ccc([N+](=O)[O-])cn2)Oc2ccc(C)cc2)cc1`, with inactive: -0.02%; and `CC(C)c1ccc(OP(=O)(Nc2ccccn2)Oc2ccccc2F)cc1` (stereo not given), with inactive: 0.09%.

`CCN(CC)C(=S)SC(NC=O)C(Cl)(Cl)Cl` (stereo not given): the inhibition is inactive: 0.06%. Then `CC(C)NC(=O)NP(=O)(Oc1ccccc1)Oc1ccccc1`, with inactive: -0.12%; and `O=[N+]([O-])c1cc([N+](=O)[O-])c(-c2ccn[nH]2)s1`, with inactive: -0.14%. Next, `CCOC(=O)Nc1ccc([As](=O)(O)O)c(O)c1`: inactive: 0.01%; `Cc1cc(SC(NC(=O)c2ccccc2)C(Cl)(Cl)Cl)nc(C(C)C)n1` (stereo not given): inactive: -0.18%. With `CCOC(=O)Nc1cccc([As](=O)(O)O)c1`, the inhibition is inactive: -0.07%.

Consider `O=[N+]([O-])c1ccc(Nc2ccc(Oc3ccc([N+](=O)[O-])cc3[N+](=O)[O-])cc2)c([N+](=O)[O-])c1`, for which the inhibition is inactive: -0.05%. Regarding `O=P(Nc1ccccn1)(c1cccc2ccccc12)c1cccc2ccccc12`, the inhibition was inactive: 0.08%. As for `Cc1cc(SC(NC=O)C(Cl)(Cl)Cl)ncn1` (stereo not given), the inhibition was inactive: 0.29%. Next, `COP1(=S)c2c(C)nn(CCC#N)c2N=C(c2ccc(F)cc2)N1C` (stereo not given): inactive: 0.01%; `O=C(COc1ccccc1)OC1CN2CCC1CC2` (stereo not given): inactive: 0.13%. Then `O=C(Nc1ccncc1[N+](=O)[O-])c1ccc([N+](=O)[O-])cc1[N+](=O)[O-]`, with inactive: -0.11%. Then `CCOC(=O)c1ccc(NC(=O)C(C)(CCl)SC)cc1` (stereo not given), with inactive: 0.06%; and `O=C(OC1CN2CCC1CC2)c1cccc([N+](=O)[O-])c1` (stereo not given), with inactive: -0.06%. For `CCC(C)N(CC(C)C)C(=S)SC(NC(C)=O)C(Cl)(Cl)Cl` (stereo not given), the inhibition was inactive: 0.03%. Next, `COc1ccc(C2=NCC(CBr)S2)cc1` (stereo not given): inactive: 0.05%; `O=[N+]([O-])c1cccc2n[nH]nc12`: inactive: -0.15%. Next, `CC(=O)N1C2C3N(C(C)=O)C1C1N(C(C)=O)C(C(N1C(C)=O)N3C(C)=O)N2C(C)=O`: inactive: -0.11%; `Cc1ccc(NP(=O)(Oc2ccccc2)Oc2ccccc2)nc1`: inactive: 0.69%; `CCc1nc2c(n1)c1c(non1O)c1c2no[n+]1[O-]`: inactive: -0.07%. Next, `O=[N+]([O-])c1cc([N+](=O)[O-])c(CCNc2ccccc2)c([N+](=O)[O-])c1`: inactive: 0.37%; `Nc1ccc([As](=O)(O)c2ccc(N)cc2)cc1`: inactive: -0.07%.

`C[N+]1=C2C=CC=CC=C2SC12C([N+](=O)[O-])=CC([N+](=O)[O-])=C[C-]2[N+](=O)[O-]` (stereo not given): the inhibition is inactive: 0.39%. Next, `CCN(/C(=N/P(=O)(N1CCOCC1)N1CCOCC1)N1CCOCC1)c1ccc(OC)cc1`: inactive: -0.03%; `CC(C)=N/N=C(\N)N[N+](=O)[O-]`: inactive: -0.12%. Then `CN(C)C(=O)OCCc1n(C)cc[n+]1C`, with inactive: 0.08%. Next, `CC1CCN(C(=O)Oc2c(Cl)cc(Cl)c3cccnc23)CC1`: inactive: -0.06%. Take `O=C(Nc1cc([As](=O)(O)O)ccc1O)c1ccccc1`: the inhibition was inactive: 0.09%. On to `CC(C)(C)C(=O)NC(Sc1ccncn1)C(Cl)(Cl)Cl` (stereo not given), for which the inhibition is inactive: 0.03%. Next, `O=[N+]([O-])c1ncn(CCn2ncnc2[N+](=O)[O-])n1`: inactive: -0.05%; `O=[N+]([O-])c1cccc(NC2=NCC(CBr)S2)c1` (stereo not given): inactive: -0.13%; `O=C(O)CNc1ccc([As](=O)(O)O)cc1`: inactive: 0.03%. Take `O=C(O)c1ccccc1[As](=O)(O)O`: the inhibition was inactive: -0.81%. Next, `CC(=O)Nc1ccc([As](=O)(O)O)cc1`: inactive: -0.16%; `O=P(Nc1nc2ccc(Cl)cc2s1)(c1ccccc1)c1ccccc1`: inactive: 0.17%; `CCOP(=O)(Nc1ccccc1)OCC`: inactive: 0.06%. Next, `Cc1cc(SC(NC(=O)c2ccc(F)cc2)C(Cl)(Cl)Cl)ncn1` (stereo not given): inactive: 0.05%. Regarding `Cc1ccc(NP(=O)(Oc2ccccc2F)Oc2ccccc2F)nc1`, the inhibition is inactive: -0.17%. Then `CN(C(=O)Cc1ccc(Cl)c(Cl)c1)[C@H]1CCCC[C@@H]1N1CCCC1`, with inactive: 0.29%; and `O=[N+]([O-])c1cc([N+](=O)[O-])c(CCN2CCOCC2)c([N+](=O)[O-])c1`, with inactive: 0.04%. Next, `CCN(N=Nc1nonc1N)c1nonc1N`: inactive: -0.13%.
